Results deposited as PubChem BioAssay AID504761 (Drosophila RNAi Screening Center, 2011).
Aim: 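Insect host genes that dengue virus relies on to spread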 (primary screen). Cell system: D.Mel-2 cells from Drosophila. Reagents: long dsRNA against Drosophila genes. Treatment: infection with dengue virus type 2; dose and infection time not stated. Measurement: 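Cells stained for dengue envelope protein and imaged; percent of infected cells per well on duplicate plates, ranked by infection, with stained nuclei counted for cell number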. Scale: infection score: higher = more virus-infected cells; cell count: higher = more cells in the well. Rule for the call: 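Very low infection ranking in both replicate wells (chance probability at most 0.065), then a retest showing infection dropped 1.5-fold or more at p below 0.05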. Calls: active = confirmed: knock-down lowers infection; inactive = not picked or not confirmed.
The screen tested about 22,000 reagents; this is a random part of those with a known target gene and a result. In the full data, 116 (0.52%) were called active. 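Calls depend on retest data that are not deposited; infection was ranked per plate without normalising between plates; the unit of the infection score is not given.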 Raw values are not corrected between plates. A plus sign joins genes that one reagent is predicted to hit. No sequences are given here. Not stated in the record: the amount of reagent, the time to read-out.

| Gene | DRSC id | infection score, replicate 1 | infection score, replicate 2 | cell count, replicate 1 | cell count, replicate 2 | outcome |
| --- | --- | --- | --- | --- | --- | --- |
| Npc2b | DRSC15464 | 4.78 | 3.77 | 6128 | 6105 | inactive |
| eya | DRSC03510 | 1.23 | 2.55 | 6029 | 6461 | inactive |
| Atg6 | DRSC15798 | 2.32 | 3.47 | 6843 | 6303 | inactive |
| Atg6 | DRSC24442 | 5.85 | 2.08 | 6322 | 5958 | inactive |
| Rpt3 | DRSC20283 | 1.55 | 1.86 | 1544 | 1824 | inactive |
| Rpt3 | DRSC23412 | 1.3 | 1 | 3703 | 4422 | inactive |
| Eig71Ek | DRSC11158 | 4.93 | 3.19 | 5574 | 5923 | inactive |
| CG5346 | DRSC15778 | 0.2 | 5.54 | 503 | 6573 | inactive |
| CG5346 | DRSC26107 | 7.57 | 2.73 | 5747 | 5638 | inactive |
| Sbat | DRSC00160 | 5.57 | 4.73 | 6427 | 5797 | inactive |
| Gyc76C + CG42637 | DRSC11180 | 6.77 | 11.6 | 2009 | 6381 | inactive |
| Ranbp21 | DRSC19447 | 5.88 | – | 5698 | 538 | inactive |
| CG18132 | DRSC00518 | 2.19 | 8.05 | 6773 | 6645 | inactive |
| CG31988 | DRSC22491 | 2.29 | 13.7 | 5405 | 5850 | inactive |
| CG43672 | DRSC19452 | 6.1 | 3.7 | 5479 | 6059 | inactive |
| CG43672 | DRSC20108 | 4.44 | 7.16 | 5925 | 5977 | inactive |
| IFT46 | DRSC02462 | 21.7 | 20.3 | 5950 | 5855 | inactive |
| Sec15 | DRSC16179 | 4.76 | 13.4 | 1785 | 5084 | inactive |
| Sec15 | DRSC29670 | 14.7 | 5.58 | 3296 | 1290 | inactive |
| CG43773 | DRSC00287 | 11.2 | 11.3 | 6759 | 6684 | inactive |
| CG43773 | DRSC00288 | 1.69 | 15.5 | 6332 | 6885 | inactive |
| CG43773 | DRSC26834 | 8.16 | 24 | 5882 | 5621 | inactive |
| TwdlF | DRSC12225 | 10.3 | 20.1 | 4325 | 5540 | inactive |
| TwdlF | DRSC27258 | 8.16 | 10.1 | 6315 | 6339 | inactive |
| CG14352 | DRSC00382 | 0.64 | 1.41 | 6680 | 6534 | inactive |
| Elp1 | DRSC14250 | 13.5 | 12.6 | 5871 | 5926 | inactive |
| Ak6 | DRSC07274 | 15.2 | 25.7 | 6107 | 6213 | inactive |
| CG14072 | DRSC02375 | 8.47 | 3.86 | 5551 | 6831 | inactive |
| CG30349 | DRSC06421 | 10.7 | – | 2533 | 445 | inactive |
| CG30349 | DRSC06839 | 36.8 | – | 4063 | 418 | inactive |
| CG30349 | DRSC28739 | 1.69 | – | 827 | 465 | inactive |

Part of the list above, reformatted:
{"Gene": "CG5346", "DRSC id": "DRSC26107", "infection score, replicate 1": 7.57, "infection score, replicate 2": 2.73, "cell count, replicate 1": 5747, "cell count, replicate 2": 5638, "outcome": "inactive"}
{"Gene": "Sbat", "DRSC id": "DRSC00160", "infection score, replicate 1": 5.57, "infection score, replicate 2": 4.73, "cell count, replicate 1": 6427, "cell count, replicate 2": 5797, "outcome": "inactive"}
{"Gene": "Gyc76C + CG42637", "DRSC id": "DRSC11180", "infection score, replicate 1": 6.77, "infection score, replicate 2": 11.6, "cell count, replicate 1": 2009, "cell count, replicate 2": 6381, "outcome": "inactive"}
{"Gene": "Ranbp21", "DRSC id": "DRSC19447", "infection score, replicate 1": 5.88, "cell count, replicate 1": 5698, "cell count, replicate 2": 538, "outcome": "inactive"}
{"Gene": "CG18132", "DRSC id": "DRSC00518", "infection score, replicate 1": 2.19, "infection score, replicate 2": 8.05, "cell count, replicate 1": 6773, "cell count, replicate 2": 6645, "outcome": "inactive"}
{"Gene": "CG31988", "DRSC id": "DRSC22491", "infection score, replicate 1": 2.29, "infection score, replicate 2": 13.7, "cell count, replicate 1": 5405, "cell count, replicate 2": 5850, "outcome": "inactive"}
{"Gene": "CG43672", "DRSC id": "DRSC19452", "infection score, replicate 1": 6.1, "infection score, replicate 2": 3.7, "cell count, replicate 1": 5479, "cell count, replicate 2": 6059, "outcome": "inactive"}

Further records:
| Gene | DRSC id | infection score, replicate 1 | infection score, replicate 2 | cell count, replicate 1 | cell count, replicate 2 | outcome |
| --- | --- | --- | --- | --- | --- | --- |
| AMPKalpha | DRSC18714 | 1.96 | 3.17 | 3513 | 4421 | inactive |
| AMPKalpha | DRSC28055 | 17.1 | 6.49 | 5635 | 6089 | inactive |
| CG4250 | DRSC04455 | 22.3 | – | 5147 | 424 | inactive |
| polo | DRSC11384 | 5.61 | 7.48 | 6957 | 6736 | inactive |
| polo | DRSC22359 | 4.2 | 1.58 | 500 | 380 | inactive |
| Lcp65Af | DRSC11213 | 3.55 | 3.39 | 6003 | 5634 | inactive |
| Lcp65Af | DRSC25142 | 12.8 | 3.74 | 6065 | 6172 | inactive |
| Alr | DRSC19469 | 5.13 | 3.6 | 4989 | 5548 | inactive |
| CHOp24 | DRSC18310 | 11.8 | 3.4 | 6184 | 6532 | inactive |
| ND-B18 | DRSC19947 | 0.61 | 3.91 | 6091 | 5929 | inactive |
| ND-B18 | DRSC27676 | 6.58 | 3.77 | 6305 | 6554 | inactive |
| CG13978 | DRSC14720 | 4.84 | 1.15 | 6321 | 7207 | inactive |
| Mppe | DRSC07296 | 24.1 | 31.2 | 2542 | 4153 | inactive |
| wa-cup | DRSC12511 | 3.66 | 13.2 | 6467 | 5760 | inactive |
| eIF3e | DRSC11199 | 2.12 | 4.28 | 3827 | 4487 | inactive |
| mbc | DRSC16995 | 6.8 | 1.58 | 6193 | 444 | inactive |
| MRG15 | DRSC16731 | 19.1 | 19.2 | 2657 | 4439 | inactive |
| Rnmt | DRSC03558 | 2.95 | 2.13 | 6415 | 6843 | inactive |
| rho-5 | DRSC02847 | 1.47 | 1.63 | 6543 | 7117 | inactive |
| rho-5 | DRSC26239 | 1.82 | 2.57 | 6525 | 6255 | inactive |
| ZnT35C | DRSC01959 | 1.61 | 3.55 | 6588 | 6654 | inactive |
| Sr-CIV | DRSC00575 | 3.5 | 2.24 | 6859 | 6474 | inactive |
| Sr-CIV | DRSC24930 | 3.44 | 2.47 | 6195 | 6242 | inactive |
| MP1 | DRSC12124 | 1.85 | 2.36 | 6799 | 6734 | inactive |
| MP1 | DRSC28577 | 0.44 | 7.51 | 450 | 1863 | inactive |
| CG4497 | DRSC02754 | 2.82 | 7.36 | 6267 | 5218 | inactive |
| ttm2 | DRSC08268 | 1.69 | 1.95 | 5734 | 5912 | inactive |
